{
  "source": "patent US20220305051A1",
  "about": "(priority 2019, published 2022)",
  "key": {"[1]": {"system": "exposure to chlorine, bromine and/or phosgene gas", "experiment": "Animal models of chlorine, bromine and/or phosgene gas poisoning, post-exposure nitrite (summary)", "settings": "planned dosing study, Br2 or COCl2 exposure"}, "[2]": {"system": "exposure to chlorine, bromine and/or phosgene gas", "settings": "IM injection post-Cl2 gas exposure, mice and rats; cited from earlier work"}},
  "data": [
    {"smiles": "O=NO", "note": "[nitrite, sodium nitrite]", "values": [
      {"measurement": "Nitrite dose needed for similar protection, females vs males", "setting": "[1]", "result": "higher nitrite doses will be required for females compared to males"},
      {"measurement": "ALI and reactive airways", "setting": "[2]", "result": "decreases ALI and reactive airways"}
    ]}
  ]
}
